According to article PMC6200136 (Journal of medicinal chemistry, 2017):

Tested on: HEK293T, MM1.S, and MDA-MB-231 cells
Experiment: Cell viability across HEK293T, MM1.S and MDA-MB-231
Settings: Homo sapiens, 72 h, read-out: cell viability IC50 values (range over cell lines)

CC[C@@H]1C(=O)N(C)c2cnc(Nc3ccc(C(=O)NC4CCN(C)CC4)cc3OC)nc2N1C1CCCC1 [BI-2536]
IC50: 1 to 3.5 nM
